Data as given in PubChem BioAssay AID1053136 (The Scripps Research Institute Molecular Screening Center, 2014).
The list shows a part of the results, in another mix than the full data. Calls of active or inactive are those of the source. No stated cut-off is given here; in the data, active means inhibition above about 14%; inactive means the rest.

Test system: HIV-1 integrase / human LEDGF/p75 complex
Assay: blockers of LEDGF/p75-dependent integrase activity – biochemical, TR-FRET, confirmation (AID 1053136)
Conditions: TR-FRET LEDGF/p75-dependent HIV-1 integration, at 3.7 µM, stronger effect = higher value

SMILES | inhibition
Nc1cccc2c([As](=O)(O)O)cccc12 | active: 78.1%
Nc1cccc2ccc([As](=O)(O)O)cc12 | active: 43.5%
